A mixed list of measured activities; the numbers were collected in NIAID ChemDB.

Shared fields: tests in culture; organism: HIV-1; cell line: MT-4; endpoint: EC50

Lines come from different laboratories, so protocols vary.

compound	strain	changes	method	result
CC(C)(CCCNS(C)(=O)=O)CN(C[C@@H](O)[C@H](Cc1ccccc1)NC(=O)O[C@H]1CO[C@H]2OCC[C@H]21)S(=O)(=O)c1ccc2c(c1)OCO2	Multi-PI-resistant EP13	PR-M46I L63P A71V V82F/L I84V	cytopathic effect / propidium iodide	0.047 µM
O=c1[nH]c(=O)n([C@H]2C=C[C@@H](CO)O2)cc1C#CCCCO	IIIB		RT activity	>100 µM
CC(C)(CCCN)CN(C[C@@H](O)[C@H](Cc1ccccc1)NC(=O)O[C@H]1CO[C@H]2OCC[C@H]21)S(=O)(=O)c1ccc2c(c1)OCO2	Multi-PI-resistant EP13	PR-M46I L63P A71V V82F/L I84V	cytopathic effect / propidium iodide	0.54 µM
C/C=C(/C)C(=O)O[C@@H]1/C(C)=C/[C@@]23O[C@@]2(C[C@H](C)[C@@H]3OC(C)=O)C(=O)[C@H](C)[C@@H](OC(C)=O)[C@@H]2[C@H]([C@@H]1OC)C2(C)C	NL4-3		luciferase	>20 µM
CNC(C)[C@H]1O[C@H](O[C@@H]2[C@@H](O)[C@H](O[C@@H]3OC[C@@](C)(O)[C@@H](NC)[C@@H]3O)[C@@H](NC(=O)[C@@H](N)CCCN=C(N)N)C[C@H]2NC(=O)[C@@H](N)CCCN=C(N)N)[C@H](NC(=O)[C@@H](N)CCCN=C(N)N)[C@@H](O)[C@@H]1O	NL4-3			15 µM
COc1ccccc1-n1c(-n2[nH]c(=O)c3ccccc3c2=O)nc2ccccc2c1=O	IIIB		visual reading	100 µM
O=c1[nH]cnc2c1ncn2[C@H]1CC[C@@H](CO)O1	IIIB		antigen	14 µM
COc1ccc(CN[C@@H](C(=O)N[C@H](C(=O)Nc2nc3ccccc3s2)C(C)C)[C@H](O)[C@H](Cc2ccccc2)NC(=O)[C@@H](NC(=O)OCc2ccccc2)C(C)C)cc1	IIIB		cytopathic effect / MTT	0.87 µM
Cc1cc(C#Cc2ccc(C(F)(F)F)cc2)cc(C)c1Oc1ccnc(Nc2ccc(C#N)cc2)n1	IIIB	Y188L	MTT	>7.353 µM
CC(C)Nc1cccnc1N1CCN(C(=O)c2cc3cc(NS(C)(=O)=O)ccc3[nH]2)CC1	IIIB		cytopathic effect / MTT	0.01 µM
c1ncc(CN2CCCNCCNCCCNCC2)cc1CN1CCCNCCNCCCNCC1	IIIB		cytopathic effect / MTT	0.04 µg/mL
Nc1nc(Cl)nc2c1ncn2[C@@H]1C[C@@H](O)[C@H](CO)O1			cytopathic effect / MTT	>10 µM
Nc1nc(N2CCC2)c2ncn([C@H]3C=C[C@@H](CO)C3)c2n1	IIIB		cytopathic effect / propidium iodide	6.1 µM
Cc1cc(C#Cc2cccc(N)c2)cc(C)c1Oc1ccnc(NC2CCN(Cc3ccc(C(N)=O)cc3)CC2)n1	IIIB	RES056	MTT	>0.198 µM
Cn1c(C(OC(C)(C)C)C(=O)O)c(-c2cccc(F)c2F)c2ccccc2c1=O			luciferase	2.55 µM
Cc1ccnc2c1NC(=O)c1cccnc1N2C1CC1	IIIB		cytopathic effect / MTT	0.04 µM
Cc1cccc(S(=O)(=O)c2c(C(=O)NNCCO)[nH]c3ccc(Cl)cc23)c1		RT-Y181C	cytopathic effect / MTT	0.05 µM
CC(C)[C@H](NC(=O)OCc1ccccc1)C(=O)N[C@@H](Cc1ccccc1)[C@@H](O)[C@@H](NCc1ccccc1)C(=O)N[C@H](C(=O)NCc1cccnc1)C(C)C	IIIB		cytopathic effect / MTT	0.59 µM
CC1(C)[C@H]2CC[C@@]34CC[C@@H](C[C@H]3[C@]2(C)CC[C@@H]1O)[C@](O)(CO)C4	NL4-3		luciferase	>20 µM
C1CNCCNCCCN(CCCN2CCCNCCNCCCNCC2)CCNC1	JM2763-resistant (gp120 S274R Q278H I288V A297T)		cytopathic effect / MTT	127.5 µg/mL
Cc1cc(C#Cc2ccccc2)cc(C)c1Oc1ccnc(NC2CCN(Cc3ccc(S(N)(=O)=O)cc3)CC2)n1	IIIB	L100I	MTT	>0.766 µM
O=C(OC[C@@H]1CC[C@H](n2cnc3c(=O)[nH]cnc32)O1)C(=O)N1CCCC1C(=O)N[C@H](Cc1ccccc1)C(=O)OCc1ccccc1	IIIB		antigen	15 µM
CCn1cc(C(=O)O)c(=O)c2cc(F)c(N3CCN(CC(=O)OC[C@@H]4CC[C@H](n5cnc6c(=O)[nH]cnc65)O4)CC3)cc21	IIIB		cytopathic effect / MTT	1.16 µM
Cc1ccc(S(=O)(=O)c2c(C(=O)NNCCO)[nH]c3ccc(Cl)cc23)c(C)c1		RT-Y181C	cytopathic effect / MTT	14 µM
O=c1[nH]n(-c2nc3ccccc3c(=O)n2-c2ccccc2)c(=O)c2ccccc12	IIIB		visual reading	100 µM
Cc1cc(/C=C/c2ccccc2)cc(C)c1Oc1ccnc(Nc2ccc(C#N)cc2)n1	IIIB	E138K	MTT	0.235 µM
CC(C)CN(C[C@@H](O)[C@H](Cc1ccccc1)NC(=O)[C@H](CC(N)=O)NC(=O)c1ccc2ccccc2n1)C(=O)NC(C)(C)C	NL4-3	PR-M46I V82T	p24	<0.4 µM
COc1nc(N)nc2c1ncn2[C@H]1C=C[C@@H](CO)C1	IIIB		cytopathic effect / propidium iodide	3 µM
Cc1cc(C#Cc2cccc(N)c2)cc(C)c1Oc1ccnc(NC2CCN(Cc3ccc(S(N)(=O)=O)cc3)CC2)n1	IIIB	L100I	MTT	0.14 µM
O=c1[nH]cnc2c1ncn2[C@H]1CC[C@@H](CO)O1	IIIB		cytopathic effect / MTT	4.8 µM
CC(=O)O[C@H]1[C@H]2[C@@H]([C@H](OC(C)=O)[C@@H](C)C(=O)[C@@]34C[C@H](C)[C@H](OC(C)=O)[C@]3(/C=C(\C)[C@H]1OCc1ccccc1)O4)C2(C)C	NL4-3		luciferase	>20 µM
NCC#Cc1cn([C@H]2C=C[C@@H](CO)O2)c(=O)[nH]c1=O	IIIB		RT activity	>100 µM
c1cc(CN2CCCNCCNCCCNCC2)ccc1CN1CCCNCCNCCCNCC1	IIIB		cytopathic effect / MTT	0.005 µg/mL
Nc1ccn([C@H]2CC[C@@H](CO)O2)c(=O)n1	IIIB		RT activity	0.45 µM
Nc1ncnc2c1ncn2[C@H]1CC[C@@H](CO)O1	IIIB		antigen	10 µM
Cc1ccc(-n2c(-n3[nH]c(=O)c4ccccc4c3=O)nc3ccccc3c2=O)cc1	IIIB		visual reading	100 µM
CCc1cc(NCc2nc3c(Cl)ccc(Cl)c3o2)c(=O)[nH]c1C	IIIB		cytopathic effect / MTT	0.03 µM
CCCCOc1nc(N)nc2c1ncn2[C@H]1C=C[C@@H](CO)C1	IIIB		cytopathic effect / propidium iodide	6.6 µM
Cc1cc(C)cc(S(=O)(=O)c2c(C(N)=O)[nH]c3ccc(Cl)cc23)c1		RT-Y181C	cytopathic effect / MTT	1.2 µM
Cc1cc(C#Cc2ccccc2N)cc(C)c1Oc1ccnc(Nc2ccc(C#N)cc2)n1	IIIB	Y188L	MTT	>8.88 µM
Nc1nc(Cl)nc2c1ncn2[C@H]1O[C@@H](CO)[C@@H](O)[C@@H]1O			cytopathic effect / MTT	>10 µM
CC(C)(C)NC(=O)[C@@H]1C[C@@H]2CCCC[C@@H]2CN1C[C@@H](O)[C@H](Cc1ccccc1)NC(=O)[C@H](CC(N)=O)NC(=O)c1ccc2ccccc2n1	NL4-3	PR-M46I L63P V82T	p24	<0.025 µM
C=CCSc1nc(N)nc2c1ncn2[C@H]1C=C[C@@H](CO)C1	IIIB		cytopathic effect / propidium iodide	7.3 µM
[N-]=[N+]=N[C@@H]1C[C@@H](n2cnc3c(N)nc(Cl)nc32)O[C@H]1CO			cytopathic effect / MTT	>10 µM
O=C(CN1CCN(c2ccc(Cl)cc2)CC1)OC[C@@H]1CC[C@H](n2cnc3c(=O)[nH]cnc32)O1	IIIB		cytopathic effect / MTT	0.64 µM
COC(=O)NCCCC(C)(C)CN(C[C@@H](O)[C@H](Cc1ccccc1)NC(=O)O[C@H]1CO[C@H]2OCC[C@H]21)S(=O)(=O)c1cccc(N)c1	Multi-PI-resistant EP13	PR-M46I L63P A71V V82F/L I84V	cytopathic effect / propidium iodide	0.036 µM
O=c1[nH]n(-c2nc3ccccc3c(=O)n2-c2ccccc2Cl)c(=O)c2ccccc12	IIIB		visual reading	100 µM
OC[C@@H]1C=C[C@H](n2cnc3c(NC4CC4)ncnc32)C1	IIIB		cytopathic effect / propidium iodide	>200 µM
CC(=O)NCCCC(C)(C)CN(C[C@@H](O)[C@H](Cc1ccccc1)NC(=O)O[C@H]1CO[C@H]2OCC[C@H]21)S(=O)(=O)c1ccc2c(c1)OCO2	Multi-PI-resistant EP13	PR-M46I L63P A71V V82F/L I84V	cytopathic effect / propidium iodide	0.03 µM
O=c1[nH]c(=O)n([C@H]2C=C[C@@H](CO)O2)cc1C#CCCOC1CCCCO1	IIIB		RT activity	>100 µM
Cc1cc(C#Cc2cccc(N)c2)cc(C)c1Oc1ccnc(NC2CCN(c3cccc(C(N)=O)c3)CC2)n1	IIIB	Y188L	MTT	0.13 µM
Nc1nc(Cl)c2ncn([C@H]3C=C[C@@H](CO)C3)c2n1	IIIB		cytopathic effect / propidium iodide	7.6 µM
COc1ccc(CN[C@@H](C(=O)N[C@H](C(=O)NCCc2ccc(O)cc2)C(C)C)[C@H](O)[C@H](Cc2ccccc2)NC(=O)[C@@H](NC(=O)OCc2ccccc2)C(C)C)cc1	IIIB		cytopathic effect / MTT	1.45 µM
Cc1cc(C#CC2CC2)cc(C)c1Oc1ccnc(Nc2ccc(C#N)cc2)n1	IIIB	Y188L	MTT	0.368 µM

Repeating the first 6 entries:

compound | strain | changes | method | result
CC(C)(CCCNS(C)(=O)=O)CN(C[C@@H](O)[C@H](Cc1ccccc1)NC(=O)O[C@H]1CO[C@H]2OCC[C@H]21)S(=O)(=O)c1ccc2c(c1)OCO2 | Multi-PI-resistant EP13 | PR-M46I L63P A71V V82F/L I84V | cytopathic effect / propidium iodide | 0.047 µM
O=c1[nH]c(=O)n([C@H]2C=C[C@@H](CO)O2)cc1C#CCCCO | IIIB |  | RT activity | >100 µM
CC(C)(CCCN)CN(C[C@@H](O)[C@H](Cc1ccccc1)NC(=O)O[C@H]1CO[C@H]2OCC[C@H]21)S(=O)(=O)c1ccc2c(c1)OCO2 | Multi-PI-resistant EP13 | PR-M46I L63P A71V V82F/L I84V | cytopathic effect / propidium iodide | 0.54 µM
C/C=C(/C)C(=O)O[C@@H]1/C(C)=C/[C@@]23O[C@@]2(C[C@H](C)[C@@H]3OC(C)=O)C(=O)[C@H](C)[C@@H](OC(C)=O)[C@@H]2[C@H]([C@@H]1OC)C2(C)C | NL4-3 |  | luciferase | >20 µM
CNC(C)[C@H]1O[C@H](O[C@@H]2[C@@H](O)[C@H](O[C@@H]3OC[C@@](C)(O)[C@@H](NC)[C@@H]3O)[C@@H](NC(=O)[C@@H](N)CCCN=C(N)N)C[C@H]2NC(=O)[C@@H](N)CCCN=C(N)N)[C@H](NC(=O)[C@@H](N)CCCN=C(N)N)[C@@H](O)[C@@H]1O | NL4-3 |  |  | 15 µM
COc1ccccc1-n1c(-n2[nH]c(=O)c3ccccc3c2=O)nc2ccccc2c1=O | IIIB |  | visual reading | 100 µM

ECn: concentration that inhibits the pathogen or its effect by n%. An empty or dashed field is not shown.